A mixed list of measured activities; the numbers were collected in NIAID ChemDB.

All rows: whole-cell or culture tests; species: Candida albicans; measure: MIC

a–b is a range or a potency band. An empty or dashed field is not shown. Rows are shuffled and stem from different studies.

{"structure": "COc1c(CN(C)C)cccc1C1OC(c2ccncc2)=NN1C(C)=Nc1ccccc1Cl", "strain": "MTCC 227", "result": "6.25 µg/mL"}
{"structure": "NC(=S)CSc1ccnc(C(N)=S)c1", "strain": "44859", "result": ">1000 µM"}
{"structure": "CO[C@@H](n1ccnc1)[C@](O)(Cn1cncn1)c1ccc(Cl)cc1", "result": ">100 µg/mL"}
{"structure": "CCc1nc2ccccc2n1CC(O)(Cn1cncn1)c1ccc(F)cc1F", "result": "6.25–12.5 µg/mL"}
{"structure": "Clc1nssc1=Nc1ccccc1", "strain": "ATCC 10231", "result": "16 µg/mL"}
{"structure": "Cc1ccc(-c2nc3ccccc3n2CC(O)(Cn2cncn2)c2ccc(F)cc2F)cc1", "result": "100–200 µg/mL"}
{"structure": "Cn1cc(C(=O)c2ccc(F)cc2)cc1/C=C/C(=O)NO", "result": ">8 µg/mL"}
{"structure": "COc1ccccc1-c1nc2ccccc2n1CC(O)(Cn1cncn1)c1ccc(F)cc1F", "result": "50–100 µg/mL"}
{"structure": "C=C1C[C@@]23CC[C@H]4[C@@](C)(CCC[C@@]4(C)C(=O)O)[C@@H]2CC[C@@H]1C3", "result": ">100 µg/mL"}
{"structure": "CCOC(=O)/C=C/c1cc(C(=O)c2ccc(F)cc2)cn1C", "result": ">15 µg/mL"}
{"structure": "COc1ccc2c(c1)CCN1C(NCCCCCC=C(C)C)NCCC21", "strain": "NFI2103", "result": "64 µg/mL"}
{"structure": "Cc1c(O)cccc1C(=O)N[C@@H](CSc1ccccc1)[C@H](O)CN1C[C@H]2CCCC[C@H]2C[C@H]1C(=O)NC(C)(C)C", "strain": "I136", "result": "32 µg/mL"}
{"structure": "COc1ccc(-c2cc(C(=O)N/N=C/c3ccc(Br)cc3)c3ccccc3n2)cc1", "strain": "ATCC 10231", "result": "50 µg/mL"}
{"structure": "CC(C)=CCCCCCNC1NCCC2c3ccccc3CCN12", "strain": "NFI2103", "result": "32 µg/mL"}
{"structure": "Cn1cc(C(=O)c2ccc([N+](=O)[O-])cc2)cc1/C=C/C(=O)NO", "result": ">15 µg/mL"}
{"structure": "NC(=S)CSc1cc(C(N)=S)ccn1", "strain": "44859", "result": ">1000 µM"}
{"structure": "OC(Cn1cncn1)(Cn1c(-c2ccccc2)nc2ccccc21)c1ccc(F)cc1F", "result": "6.25–12.5 µg/mL"}
{"structure": "O=C(N/N=C/c1cc([N+](=O)[O-])ccc1O)c1ccc(I)cc1", "strain": "ATCC 58455", "result": ">25 µg/mL"}
{"structure": "Clc1nssc1=Nc1cccc2ccccc12", "strain": "ATCC 10231", "result": "16 µg/mL"}
{"structure": "C=C[C@]1(C)CCC2C(=CCC3[C@]2(C)CCC[C@@]3(C)C(=O)O)C1", "result": ">100 µg/mL"}
{"structure": "Clc1nssc1=Nc1cccc2ncccc12", "strain": "ATCC 10231", "result": "32 µg/mL"}
{"structure": "C=C(CCCCCNC1NCCC2c3ccccc3CCN12)C(C)C", "strain": "NFI2103", "result": "16 µg/mL"}
{"structure": "COc1ccc2ncn(CC(O)(Cn3cncn3)c3ccc(F)cc3F)c2c1", "result": "100–200 µg/mL"}
{"structure": "CC(C)=CCC1=CC(=O)C(=O)C(C)=C1O", "strain": "ATCC 10231", "result": "37 µg/mL"}
{"structure": "Cn1cc(C(=O)c2ccc(F)cc2)cc1/C=C/C(=O)O", "result": ">15 µg/mL"}
{"structure": "COc1c(CN(C)C)cccc1C1OC(c2ccncc2)=NN1C(C)=Nc1ccccc1", "strain": "MTCC 227", "result": "12.5 µg/mL"}
{"structure": "N#Cc1ccc(/C=N/Nc2ccnc3cc(Cl)ccc23)cc1", "result": ">200 µg/mL"}
{"structure": "Cn1cc(C(=O)c2ccccc2)cc1/C=C/C(=O)NO", "result": ">15 µg/mL"}
{"structure": "CCN(CC)C(=O)COc1cc2c(O)c3c(O)c(C)c4c(c13)C(=O)[C@@](C)(O/C=C/[C@H](OC)[C@@H](C)[C@@H](OC(C)=O)[C@H](C)[C@H](O)[C@H](C)[C@@H](O)[C@@H](C)/C=C/C=C(/C)C(=O)N2)O4", "strain": "ATCC 10231", "result": ">100 µg/mL"}
{"structure": "CCOC(=O)/C=C/c1cc(C(=O)c2ccc(OC)cc2)cn1C", "result": ">15 µg/mL"}
{"structure": "Cc1ccc(/C=N/Nc2ccnc3cc(Cl)ccc23)cc1", "result": "100 µg/mL"}
{"structure": "CO[C@@H](n1cncn1)[C@@](O)(Cn1cncn1)c1ccc(Cl)cc1", "result": ">100 µg/mL"}
{"structure": "COc1ccc(/C=N/NC(=O)c2cc(-c3ccc(Cl)cc3)nc3ccc(Cl)cc23)cc1", "strain": "ATCC 10231", "result": "50–100 µg/mL"}
{"structure": "C/C=C/c1nc2ccccc2n1CC(O)(Cn1cncn1)c1ccc(F)cc1F", "result": "25–50 µg/mL"}
{"structure": "O=C(N/N=C/c1ccc(Cl)cc1)c1cc(-c2ccc(Cl)cc2)nc2ccc(Cl)cc12", "strain": "ATCC 10231", "result": "50–100 µg/mL"}
{"structure": "OB1OCc2ccc3ccccc3c21", "result": "32 µg/mL"}
{"structure": "CC(C)CCCCCCNC1NCCC2c3ccccc3CCN12", "strain": "NFI2103", "result": "8 µg/mL"}
{"structure": "COC1=CC(=O)[C@H](O)[C@@](C)(O)[C@H]1O", "result": ">400 µg/mL"}
{"structure": "NC(=S)c1cc(N2CCCCC2)ccn1", "strain": "44859", "result": "500 µM"}
{"structure": "COCc1nc2ccccc2n1CC(O)(Cn1cncn1)c1ccc(F)cc1F", "result": "25–50 µg/mL"}
{"structure": "CN(C)CCCNC(=O)c1cc(NC(=O)c2cc(NC(=O)c3cc(NC(=O)c4nsc(N5CCCCC5)c4Cl)cn3C)cn2C)cn1C", "strain": "38247", "result": "8 µg/mL"}
{"structure": "COc1ccc(-c2cc(C(=O)N/N=C/c3ccccc3[N+](=O)[O-])c3cc(Cl)ccc3n2)cc1", "strain": "ATCC 10231", "result": "25–50 µg/mL"}
{"structure": "Cn1cc(NC(=O)c2cc(NC(=O)c3cc(NC(=O)c4nsc(NCCN)c4Cl)cn3C)cn2C)cc1C(=O)NCCC1=NCCN1", "strain": "38247", "result": ">32 µg/mL"}
{"structure": "CCOC(=O)/C=C/c1cc(C(=O)c2ccc(Cl)cc2)cn1C", "result": ">500 µg/mL"}
{"structure": "CN(C)CCCNc1snc(C(=O)Nc2cc(C(=O)Nc3cc(C(=O)Nc4cc(C(=O)NCCCCN)n(C)c4)n(C)c3)n(C)c2)c1Cl", "strain": "38247", "result": "8 µg/mL"}
{"structure": "CS[C@@H](n1cncn1)[C@](O)(Cn1cncn1)c1ccc(F)cc1", "result": ">100 µg/mL"}
{"structure": "CN(C)c1ccc(C(=O)c2cc(/C=C/C(=O)O)n(C)c2)cc1", "result": ">125 µg/mL"}
{"structure": "O=C(N/N=C/c1ccccc1[N+](=O)[O-])c1cc(-c2ccc(Br)cc2)nc2ccccc12", "strain": "ATCC 10231", "result": "25–50 µg/mL"}
{"structure": "NC(=S)c1cccc(-c2ccccn2)n1", "strain": "17 strains", "result": "12.5 µg/mL"}
{"structure": "CCOC(=O)/C=C/c1cc(C(=O)c2ccc(N(C)C)cc2)cn1C", "result": ">4 µg/mL"}
{"structure": "Clc1nssc1=Nc1cccc2cccnc12", "strain": "ATCC 10231", "result": "16 µg/mL"}
{"structure": "COc1ccc(-c2cc(C(=O)N/N=C/c3ccc([N+](=O)[O-])cc3)c3cc(Cl)ccc3n2)cc1", "strain": "ATCC 10231", "result": "25 µg/mL"}
{"structure": "CO[C@@H](n1cncn1)[C@@](O)(Cn1cncn1)c1ccc(C(F)(F)F)cc1", "result": ">100 µg/mL"}
{"structure": "Fc1cccc(/C=N/Nc2ccnc3cc(Cl)ccc23)c1", "result": ">200 µg/mL"}
{"structure": "O=C(N/N=C/c1ccc(Br)cc1)c1cc(-c2ccccc2)nc2ccc(Cl)cc12", "strain": "ATCC 10231", "result": "25–50 µg/mL"}

The last 7 rows once more:

structure | strain | result
NC(=S)c1cccc(-c2ccccn2)n1 | 17 strains | 12.5 µg/mL
CCOC(=O)/C=C/c1cc(C(=O)c2ccc(N(C)C)cc2)cn1C |  | >4 µg/mL
Clc1nssc1=Nc1cccc2cccnc12 | ATCC 10231 | 16 µg/mL
COc1ccc(-c2cc(C(=O)N/N=C/c3ccc([N+](=O)[O-])cc3)c3cc(Cl)ccc3n2)cc1 | ATCC 10231 | 25 µg/mL
CO[C@@H](n1cncn1)[C@@](O)(Cn1cncn1)c1ccc(C(F)(F)F)cc1 |  | >100 µg/mL
Fc1cccc(/C=N/Nc2ccnc3cc(Cl)ccc23)c1 |  | >200 µg/mL
O=C(N/N=C/c1ccc(Br)cc1)c1cc(-c2ccccc2)nc2ccc(Cl)cc12 | ATCC 10231 | 25–50 µg/mL